Experimental data taken from paper PMC4690014, “Functional Analysis of Cotton Leaf Curl Kokhran Virus/Cotton Leaf Curl Multan Betasatellite RNA Silencing Suppressors”.

Tested on: C4 (Trx-His fusion) (Cotton leaf curl Kokhran virus)
Experiment: EMSA
Details: recombinant protein; protein details: N-terminal Trx-His (pET32a); label: 5'-32P; single-stranded DNA

GCGTCGACGTCTTGCTCTAGAGATGTATCCATATGATGTTCCGGATTACGCGGAACGAGCTATACAAGG [69 nt ssDNA (SalI-XbaI-HA-Tag oligo, by length)]
binding result: binds

The exact form of at least one protein or probe is not confirmed.
